Paper PMC3464209
For at least one entry, the source does not settle the construct or the ends of the probe. A negative result means that nothing was seen under these conditions.

Amino acid sequences for entries named in this document (tags omitted). A change or cut given only in a name is not applied to a line headed by its entry.
UniProt Q2FWL2: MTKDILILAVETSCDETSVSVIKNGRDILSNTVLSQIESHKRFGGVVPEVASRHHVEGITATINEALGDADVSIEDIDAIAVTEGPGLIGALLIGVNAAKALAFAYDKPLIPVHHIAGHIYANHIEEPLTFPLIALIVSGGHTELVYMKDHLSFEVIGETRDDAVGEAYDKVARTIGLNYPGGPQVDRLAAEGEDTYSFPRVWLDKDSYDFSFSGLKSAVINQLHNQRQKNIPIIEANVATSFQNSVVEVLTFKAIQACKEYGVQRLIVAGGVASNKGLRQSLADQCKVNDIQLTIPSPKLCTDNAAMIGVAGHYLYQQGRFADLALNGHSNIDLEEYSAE

Molecular target: Gcp (UniProt Q2FWL2)
Assay: EMSA
Conditions: 2 mM Mg2+, poly-[d(I-C)] 1 ug, various Gcp concentrations; 25 mM NaH2PO4 pH 8.0, 50 mM NaCl, 2 mM MgCl2, 1 mM DTT, 10% glycerol, 0.1 mM EDTA, 1 ug poly-[d(I-C)], 0.2 pmol DIG-DNA in 20 ul, room temperature 25 min; recombinant protein; protein details: His-tag; probe letters rebuilt from the primers and the genome

## ATCCATTGTTCAATCGTATCTAACTTTATATTTAACCTTTATATTGTAACAAATTTCAACTTAAATTTCTTATCTTTGAAACAGATTATCTATTCAAAGTTAATTGTAAGAAAATTTAAAATATTTGTTGACATACTAAAGCAGATATAGTAAATTAAATTTATCAAATTTTTAGACAATTCTAACTATTAAAGTGATATATACCATTCACGGAAGGAGTATAATAAAATGCTTAATCAATATACTGAACATCAACCGACAACTTCAAATATTATTATTTTATTATACTCTTTAGGACTCGAACGTTAGTAAATATTTACTAAACGCTTTAAGTCCTATTTCTGTTTGAATGGGACTTGTAAACGTCCCAATAATATTGGGACGTTTTTTTATGTTTTATCTTTCAATTACTTATTTTTATTACTATAAAACATGATTAATCATTAAAATTTAC (double strand) [ilv promoter region (upstream of ilvD)]
  binding result: no binding
